Measured values from several laboratories, pooled; numbers as filed in NIAID ChemDB.

Shared fields: target-level tests; species: HIV; target: Reverse transcriptase; endpoint: IC50

ICn: concentration for n% inhibition. Rows are shuffled and stem from different studies. An empty or dashed field is not shown. a–b is a range or a potency band.

compound,mutations,method,result
Fc1cccc(F)c1CC(=S)Nc1ccc(Cl)cn1,K103N,radiometric,>100 µM
Cc1cc(Cc2ccc(Cl)c(Oc3cc(Cl)cc(C#N)c3)c2F)n[nH]c1=O,,nucleotide incorporation,0.001 µM
COc1ccc2nc3cc(Cl)ccc3c(NCCCCN)c2c1,,nucleotide incorporation / radiometric,10.5 µg/mL
S=C(CCc1ccccc1)Nc1ccc(Cl)cn1,L100I,radiometric,>100 µM
COc1ccc2nc3cc(Cl)ccc3c(NCCCN3CCN(CCCN)CC3)c2c1,,nucleotide incorporation / radiometric,13 µg/mL
COc1cc(C#N)cc(Oc2c(Cl)ccc(Cc3cc(C)c(=O)[nH]n3)c2F)c1,WT,,0.002 µM
CCN1c2nc(Cl)ccc2NC(=O)c2cc(CSc3ccccc3)cnc21,Y181C,RT activity,1.5 µM
Cc1cn([C@H]2CC[C@@H](COP(=O)(O)OP(=O)(O)OP(=O)(O)O)O2)c(=O)[nH]c1=O,RT-W88G,nucleotide incorporation / radiometric,0.41 µM
COc1ccc2nc3cc(Cl)ccc3c(NCCNCCO)c2c1,,nucleotide incorporation / radiometric,15 µg/mL
Nc1ccn([C@H]2CC[C@@H](COP(=O)(O)OP(=O)(O)OP(=O)(O)O)O2)c(=O)n1,RT-D67N K70R T215Y K219Q,nucleotide incorporation / radiometric,0.1 µM
COc1ccc2nc3cc(Cl)ccc3c(NCCNCCN)c2c1,,nucleotide incorporation / radiometric,8.4 µg/mL
Nc1ccn([C@H]2CC[C@@H](COP(=O)(O)OP(=O)(O)OP(=O)(O)O)O2)c(=O)n1,RT-V75I F77L F116Y Q151M,nucleotide incorporation / radiometric,9.7 µM
CC(C)=CCOc1cc(NC(=S)c2ccoc2C)ccc1Cl,,,5.2 µM
CCN1c2ncc(CSc3ccccc3)cc2C(=O)Nc2c(C)cc(Cl)nc21,Y181C,RT activity,0.269 µM
COc1ccc(CCSc2nc(Cc3cccc4ccccc34)c(C(C)C)c(=O)[nH]2)cc1,,ELISA,449 µM
CCCCCCCCCCCCCCCCCC(=O)NCCN(CC(=O)O)C(=O)Cn1cc(C)c(=O)[nH]c1=O,,,65 µM
CC(C)c1c(Cc2ccccc2)nc(SCCc2ccccc2)[nH]c1=O,,ELISA,549 µM
COc1ccc2nc3cc(Cl)ccc3c(NCCN(CCN)CCN)c2c1,,nucleotide incorporation / radiometric,5.6 µg/mL
CC(C)=CCOc1cc(NC(=S)c2ccsc2C)ccc1Cl,,,0.2 µM
Nc1nc2c(ncn2[C@H]2CC[C@@H](COP(=O)(O)OP(=O)(O)OP(=O)(O)OP(=O)(O)OC[C@@H]3CC[C@H](n4cnc5c(=O)[nH]c(N)nc54)O3)O2)c(=O)[nH]1,RT-W88G,nucleotide incorporation / radiometric,6 µM
CCc1c(Cc2cccc3ccccc23)nc(SCC(=O)c2ccco2)[nH]c1=O,,ELISA,17.5 µM
COc1ccc2nc3cc(Cl)ccc3c(NCCN)c2c1,,nucleotide incorporation / radiometric,12.5 µg/mL
CC(C)c1c(Cc2cccc3ccccc23)nc(Sc2cccs2)[nH]c1=O,,ELISA,528 µM
Nc1ncnc2c1ncn2[C@H]1CC[C@@H](COP(=O)(O)OP(=O)(O)OP(=O)(O)O)O1,,radiometric,0.15 µM
CCN(CC)CCCC(C)Nc1c2ccc(Cl)cc2nc2ccc(OC)cc12,,nucleotide incorporation / radiometric,38 µg/mL
O=C(/C=C/C1=CC2C=Cc3cc(O)c(O)cc3OC2C(O)=C1)OC(Cc1ccc(O)c(O)c1)C(=O)O,,,67.1–193 µg/mL
COc1ccc(C(=O)CSc2nc(Cc3ccccc3)c(C)c(=O)[nH]2)cc1,,ELISA,1.1 µM
COc1ccc2nc3cc(Cl)ccc3c(NCCCCCCN)c2c1,,nucleotide incorporation / radiometric,7.6 µg/mL
CC(C)c1c(Cc2cccc3ccccc23)nc(SCCc2ccccc2)[nH]c1=O,,ELISA,482 µM
C=C(C)OC(=O)N1c2cc(Cl)ccc2NC(=S)C1(C)C,RT-Y181C,radiometric,7.1 µM
S=C(Cc1ccccn1)NCc1ccccc1Cl,L100I,radiometric,>100 µM
CCN1c2ncc(CSc3cccc(OC)c3)cc2C(=O)N(C)c2c(C)cc(Cl)nc21,K103N,RT activity,4.59 µM
Nc1ncnc2c1ccn2[C@H]1C[C@H](F)[C@@H](COP(=O)(O)OP(=O)(O)OP(=O)(O)O)O1,RT-K65R,nucleotide incorporation / radiometric,0.59 µM
CCN1c2ncc(CSc3ccccc3)cc2C(=O)N(C)c2c(C)cc(Cl)nc21,K103N,RT activity,4.37 µM
CCc1c(Cc2cccc3ccccc23)nc(SCCc2ccccc2)[nH]c1=O,,ELISA,499 µM
Cc1cn([C@H]2C[C@H](N=[N+]=[N-])[C@@]3(COP(=O)(O)OP(=O)(O)OP(=O)(O)O)CC23)c(=O)[nH]c1=O,,,~0.007 µM
CCN1c2nc(Cl)ccc2NC(=O)c2cc(CSc3cccc(OC)c3)cnc21,K103N,RT activity,19.4 µM
CC(C)=CCN1Cc2cccc3[nH]c(=S)n(c23)C[C@@H]1C,RT-Y271S,nucleotide incorporation,>46 µM
COc1ccc2nc3cc(Cl)ccc3c(NCCCCCCCN)c2c1,,nucleotide incorporation / radiometric,9.5 µg/mL